Values joined by “and” are separate entries in the source; they are usually repeats but may differ in a detail not shown here. Equal entries are not always repeated.
Tests used:
Format in all cases: cell-based, Salmonella enterica serovar Typhimurium
[1] = test system: Salmonella wild-type (14028); assay: Mass spectrometry measurement of intracellular 6-P-F-Asp, wild-type; conditions: * below 20 nmol, lowest standard
ΔfraB::kan (HMB206) = assay: Mass spectrometry measurement of intracellular 6-P-F-Asp, fraB mutant
[2] = test system: Δfra island deletion (HMB215); assay: Mass spectrometry measurement of intracellular 6-P-F-Asp, fra island deletion; conditions: * below 20 nmol, lowest standard
[3] = transition m/z 376→125, after 30 min in 5 mM F-Asn
[4] = transition m/z 376→125, three replicates
[5] = transition m/z 376→242, after 30 min in 5 mM F-Asn
[6] = transition m/z 376→242, three replicates

Substance: 6-phosphofructose-aspartate [6-P-F-Asp]
- 6-P-F-Asp, replicate [1, 3]: 8.54* nmol and 8.51* nmol (2×)
- 6-P-F-Asp, average [1, 4]: 8.52* nmol
- 6-P-F-Asp, replicate [1, 5]: 10.44* nmol and 10.45* nmol (2×)
- 6-P-F-Asp, average [1, 6]: 10.45* nmol
- 6-P-F-Asp, replicate (ΔfraB::kan (HMB206); [3]): 80 nmol and 110 nmol and 100 nmol
- 6-P-F-Asp, average (ΔfraB::kan (HMB206); [4]): 100 nmol
- 6-P-F-Asp, replicate (ΔfraB::kan (HMB206); [5]): 80 nmol and 93 nmol and 89 nmol
- 6-P-F-Asp, average (ΔfraB::kan (HMB206); [6]): 87 nmol
- 6-P-F-Asp, replicate [2, 3]: 8.50* nmol and 8.53* nmol (2×)
- 6-P-F-Asp, average [2, 4]: 8.52* nmol
- 6-P-F-Asp, replicate [2, 5]: 10.48* nmol and 10.46* nmol and 10.45* nmol
- 6-P-F-Asp, average [2, 6]: 10.46* nmol
